A mixed list of measured activities; the numbers were collected in NIAID ChemDB.

Shared fields: tests in culture; agent: Vaccinia virus; endpoint: EC50

ECn is the concentration giving n% inhibition of infection, replication or growth. An empty or dashed field is not shown. Neighbouring rows are from separate reports.

SMILES,cell line,strain,result
CC=NC(=N)c1nc(-c2ccc(OC)cc2)n(COCCO)n1,E6SM,-,>200 µg/mL
CCCCCCC#Cc1cn(S(=O)(=O)c2ccc(C)cc2)c(=O)[nH]c1=O,HEL,-,>200 µM
CC=NC(=N)c1nc(-c2ccc(OC)cc2)n(C/C=C/c2ccccc2)n1,E6SM,-,>10 µg/mL
O=c1c2ncn(COC(CO)CO)c2[nH]c2nccn12,-,-,400 µg/mL
CCn1cc(C(=O)O)c(=O)c2ccc(C)nc21,HeLa,Lister,83 µg/mL
O=c1[nH]c(=O)n([C@H]2C[C@H](O)[C@@H](CO)O2)cc1I,HeLa,IHD,3.39 µg/mL
Nc1nc(N)c2ncn(C[C@@H](CF)OCP(=O)(O)O)c2n1,E6SM,-,>600 µM
CC1(CO)CCC(Cn2cnc3c(Cl)nc(N)nc32)C1(C)C,E6SM,-,≥100 µg/mL
O=c1[nH]c(=O)n([C@H]2C[C@H](O)[C@@H](CO)O2)cc1CN1CCCC1,HSF,-,≥200 µg/mL
COC(=O)[C@]1(C)CCC[C@]2(C)c3cc4cc[nH]c4cc3CCC12,E6SM,-,>4 µg/mL
O=c1c2ncn(COCCO)c2nc2[nH]c(-c3ccccc3)c(-c3ccc(C(c4ccccc4)c4ccccc4)cc3)n12,-,-,>16 µg/mL
OC[C@H]1O[C@@H](n2cnc3c(Cl)nc(C#CCF)nc32)[C@H](O)[C@@H]1O,HFF,-,>20 µg/mL
Nc1nc(N)c2ncn(C[C@H](CO)OCP(=O)(O)O)c2n1,E6SM,-,63 µM
Nc1ncnc2c1ncn2C1CC(CO)[C@@H](O)[C@H]1O,PRK,-,2 µg/mL
CC=NC(=N)c1nc(-c2cccc(OC)c2)n(C/C=C/c2ccccc2)n1,E6SM,-,>10 µg/mL
Nc1nccc2c1nnn2[C@@H]1O[C@H](CO)[C@@H](O)[C@H]1O,VERO,-,>398 µM
O=c1c2ncn(COCCO)c2[nH]c2ncc(C(c3ccccc3)(c3ccccc3)c3ccccc3)n12,-,-,>16 µg/mL
O=c1[nH]c(=O)n(COCCO)cc1I,PRK,-,>400 µg/mL
O=c1[nH]c(=O)n([C@H]2CC[C@@H](CO)O2)cc1/C=C/Br,PRK,-,7 µg/mL
CC1(CO)CCC(Cn2cnc3c(=O)[nH]c(N)nc32)C1(C)C,E6SM,-,>400 µg/mL
C=CCc1ncn2c(=O)[nH]c(NC(C)=O)nc12,PRK,-,>200 µg/mL
CCCCCCCCC#Cc1c[nH]c(=O)[nH]c1=O,HEL,-,>40 µM
N#CSc1cn([C@H]2C[C@H](O)[C@@H](CO)O2)c(=O)[nH]c1=O,PRK,-,4 µg/mL
CCCCCCCC(=O)O[C@H]1[C@H](O)[C@H](n2ccc(N)nc2=O)O[C@@H]1CO,HeLa,IHD,0.019 µg/mL
OC[C@H]1O[C@@H](n2nnc3ccnc(Cl)c32)C[C@@H]1O,VERO,-,>368 µM
CCOC[C@H]1O[C@@H](n2ccc(N)nc2=O)[C@@H](O)[C@@H]1O,PRK,-,>200 µg/mL
CCC(Sc1ncnc2c1cnn2COCC(O)CO)C(N)=O,E6SM,-,>400 µg/mL
C[C@H](Cn1cnc2c(=O)[nH]c(N)nc21)OCP(=O)(O)O,E6SM,-,495 µM
NC(=O)CSc1ncnc2c1cnn2COCCO,E6SM,-,>400 µg/mL
CC=NC(=N)c1nc(-c2ccccc2)n(Cc2ccccc2)n1,E6SM,-,>4 µg/mL
CC(=O)Nc1nc2c(CC(O)CO)ncn2c(=O)[nH]1,PRK,-,>200 µg/mL
CO[C@H]1[C@H](O)[C@H](n2ccc(N)nc2=O)O[C@@H]1CO,PRK,-,>200 µg/mL
N#CSc1cn([C@@H]2O[C@H](CO)[C@@H](O)[C@H]2O)c(=O)[nH]c1=O,PRK,-,40 µg/mL
CCc1cn([C@H]2C[C@H](O)[C@@H](CO)O2)c(=O)[nH]c1=O,PRK,-,1 µg/mL
Nc1ncnc2c1ncn2C[C@H](O)CO,HEL,-,>20 µg/mL
CCCCCOC(=O)C(O)Cn1cnc2c(N)ncnc21,Primary rabbit kidney cells,-,85 µg/mL
Nc1ncnc2c1ncn2[C@@H]1C[C@H](CO)[C@@H](O)[C@H]1O,PRK,-,2 µg/mL
CN1CCN(Cc2cn([C@H]3C[C@H](O)[C@@H](CO)O3)c(=O)[nH]c2=O)CC1,PRK,-,≥200 µg/mL
C=C(N=CC)c1nc(-c2cccc(C)c2)n([C@@H]2O[C@H](CO)[C@@H](O)[C@H]2O)n1,E6SM,-,150 µg/mL
O=c1[nH]c(=O)n([C@H]2C[C@H](O)[C@@H](CO)O2)cc1-c1cc(-c2ccccc2)no1,E6SM,-,>40 µg/mL
Cc1nc(C(C)C)c2[nH]c(=S)[nH]c(=O)n12,PRK,-,>200 µg/mL
CSCc1cn([C@H]2C[C@H](O)[C@@H](CO)O2)c(=O)[nH]c1=O,PRK,-,7 µg/mL
O=c1[nH]c(=O)n(COCCO)cc1Cl,PRK,-,>400 µg/mL
CC1(CO)CCC(Cn2nnc3c(Cl)nc(N)nc32)C1(C)C,E6SM,-,>100 µg/mL
Nc1ncnc2c1ncn2[C@H]1C[C@H](O)[C@@H](C=O)O1,HEL,-,400 µg/mL
COC(=O)[C@]1(C)CCC[C@]2(C)c3ccc4[nH]cnc4c3CCC12,E6SM,-,>4 µg/mL
C=C(N=CC)c1nc(-c2ccccc2)n([C@@H]2O[C@H](CO)[C@@H](O)[C@H]2O)n1,E6SM,-,>200 µg/mL
CON=C1C[C@H](n2cc(C)c(=O)[nH]c2=O)O[C@@H]1CO,E6SM,-,>200 µg/mL
CCCCC#Cc1cn(S(=O)(=O)c2ccc(C)cc2)c(=O)[nH]c1=O,HEL,-,>40 µM
CN[C@H]1C[C@@H](n2cnc3c(N)ncnc32)[C@H](O)[C@@H]1O,HFF,-,>100 µg/mL
O=c1[nH]c(=O)n([C@@H]2OC3COP(=O)(O)OC3[C@H]2O)cc1I,PRK,-,>400 µg/mL
COc1ccc(-c2cn3c(=O)c4ncn(COC(CO)CO)c4nc3[nH]2)cc1,-,-,>80 µg/mL
Nc1ncnc2c1nnn2[C@H]1C[C@H](O)[C@@H](CO)O1,VERO,-,>396 µM
Nc1nc(=O)ccn1COCCO,PRK,-,>400 µg/mL
COC(=O)[C@]1(C)CCC[C@]2(C)c3cc(Br)c4[nH]ccc4c3CCC12,E6SM,-,>4 µg/mL
Nc1nc2c(nc(N)n2COCCO)c(=O)[nH]1,PRK,-,>400 µg/mL
O=Cc1cn([C@H]2C[C@H](O)[C@@H](CO)O2)c(=O)[nH]c1=O,HSF,-,0.1 µg/mL
C[C@H](Cn1cnc2c(N)nc(N)nc21)OCP(=O)(O)O,E6SM,-,>1200 µM
CC(=O)OCCOCn1cnc2c(=O)n3cc(-c4ccc5ccccc5c4)[nH]c3nc21,-,-,>16 µg/mL
Nc1nccc2c1ncn2[C@H]1C[C@H](O)[C@@H](CO)O1,VERO,-,>397 µM
Nc1nc2c(ncn2C[C@H](CF)OCP(=O)(O)O)c(=O)[nH]1,E6SM,-,218 µM
Nc1nc(F)nc2c1ncn2[C@@H]1C=C(CO)[C@@H](O)[C@H]1O,E6SM,-,0.1 µg/mL
CN(C)c1nc2c(=O)[nH]c(N)nc2n1COCCO,PRK,-,≥300 µg/mL
CCC(Sc1ncnc2c1cnn2COCCO)C(N)=O,E6SM,-,>400 µg/mL
O=c1[nH]c(=O)n([C@H]2C[C@H](O)[C@@H](CO)O2)cc1/C=C/Br,PRK,-,20 µg/mL
C#Cc1nc2c(ncn2[C@@H]2O[C@H](CO)[C@@H](O)[C@H]2O)c(=O)[nH]1,HFF,-,>20 µg/mL
CCCCCCCCCCC#Cc1c[nH]c(=O)[nH]c1=O,HEL,-,>40 µM
Nc1nc(N)c2nnn(CCOCP(=O)(O)O)c2n1,E6SM,-,400 µg/mL
Cc1nnc2nc3c(nn12)c1ccccc1n3C,BSC-1,WR,<60 µg/mL
OC[C@H]1O[C@@H](n2nnc3c(Cl)nccc32)[C@H](O)[C@@H]1O,VERO,-,>370 µM
COC(=O)[C@]1(C)CCC[C@]2(C)c3ccc4[nH]c(C(F)(F)F)nc4c3CCC12,E6SM,-,>4 µg/mL

A second listing of 8 rows from above:

SMILES,cell line,strain,result
C[C@H](Cn1cnc2c(N)nc(N)nc21)OCP(=O)(O)O,E6SM,-,>1200 µM
O=c1[nH]c(=O)n([C@H]2C[C@H](O)[C@@H](CO)O2)cc1CN1CCCC1,HSF,-,≥200 µg/mL
Nc1nc2c(nc(N)n2COCCO)c(=O)[nH]1,PRK,-,>400 µg/mL
COC(=O)[C@]1(C)CCC[C@]2(C)c3ccc4[nH]c(C(F)(F)F)nc4c3CCC12,E6SM,-,>4 µg/mL
CON=C1C[C@H](n2cc(C)c(=O)[nH]c2=O)O[C@@H]1CO,E6SM,-,>200 µg/mL
CC=NC(=N)c1nc(-c2ccccc2)n(Cc2ccccc2)n1,E6SM,-,>4 µg/mL
CC=NC(=N)c1nc(-c2cccc(OC)c2)n(C/C=C/c2ccccc2)n1,E6SM,-,>10 µg/mL
CCCCCCCCCCC#Cc1c[nH]c(=O)[nH]c1=O,HEL,-,>40 µM